Laboratory results as given in US20160264649A1.

What was measured:
Experiment in all cases: cell-based or functional assay
[1] = target: HIV-1 Env of all pseudoviruses of the cross-clade 162-pseudovirus panel (n = 162)
[2] = target: HIV-1 Env of all viruses (n=162) of the cross-clade 162-pseudovirus panel
[3] = target: HIV-1 Env of the 162-pseudovirus panel representing all major circulating HIV-1 subtypes (HIV-1)
[4] = target: HIV-1 Env of the clade A viruses (n=26) of the cross-clade 162-pseudovirus panel
[5] = target: HIV-1 Env of the clade AE pseudoviruses of the cross-clade 162-pseudovirus panel (n = 10)
[6] = target: HIV-1 Env of the clade AE viruses (n=10) of the cross-clade 162-pseudovirus panel
[7] = target: HIV-1 Env of the clade AG pseudoviruses of the cross-clade 162-pseudovirus panel (n = 10)
[8] = target: HIV-1 Env of the clade AG viruses (n=10) of the cross-clade 162-pseudovirus panel
[9] = target: HIV-1 Env of the clade B viruses (n=31) of the cross-clade 162-pseudovirus panel
[10] = target: HIV-1 Env of the clade C pseudoviruses of the cross-clade 162-pseudovirus panel (n = 27)
[11] = target: HIV-1 Env of the clade C viruses (n=27) of the cross-clade 162-pseudovirus panel
[12] = target: HIV-1 Env of the clade D pseudoviruses of the cross-clade 162-pseudovirus panel (n = 25)
[13] = target: HIV-1 Env of the clade D viruses (n=25) of the cross-clade 162-pseudovirus panel
[14] = target: HIV-1 Env of the clade F pseudoviruses of the cross-clade 162-pseudovirus panel (n = 15)
[15] = target: HIV-1 Env of the clade F viruses (n=15) of the cross-clade 162-pseudovirus panel
[16] = target: HIV-1 Env of the clade G pseudoviruses of the cross-clade 162-pseudovirus panel (n = 15)
[17] = target: HIV-1 Env of the clade G viruses (n=15) of the cross-clade 162-pseudovirus panel

B1: 4995_E20 (PGT-142) (antibody, V domains shown)
VH: QVQLVQSGPEVKKPGSSVKVSCKASGNTFSKYDVHWVRQATGQGLEWVGWISHERDKTESAQRFKGRVTFTRDTSATTAYMELRGLTSDDTAIYYCTRGSKHRLRDYVLYDDYGLINYQEWNDYLEFLDVWGHGTAVTVSS
VL: DTVVTQSPLSLPVTPGEAASMSCSSTQSLRHSNGANYLAWYQHKPGQSPRLLIRLGSQRASGVPDRFSGSGSGTHFTLKISRVEAEDAAIYYCMQGLNRPWTFGKGTKLEIK
Median IC50 (µg/ml) against all viruses [1]: > 50 µg/mL
Median IC50 (µg/ml) against viruses neutralized with an IC50 <50 µg/ml [2]: 0.21 µg/mL
Percent viruses neutralized with an IC50 <50 µg/ml [2]: 57%
Median IC50 (µg/ml) against viruses neutralized with an IC50 <50 µg/ml [3]: 0.21 µg/mL
Percent viruses neutralized, IC50 < 0.1 µg/ml [3]: 23%
Percent viruses neutralized, IC50 < 1 µg/ml [3]: 40%
Percent viruses neutralized, IC50 < 50 µg/ml [3]: 57%
Median IC50 (µg/ml) against all viruses [4]: 2.21 µg/mL
Median IC50 (µg/ml) against viruses neutralized with an IC50 <50 µg/ml [4]: 0.25 µg/mL
Percent viruses neutralized with an IC50 <50 µg/ml [4]: 69%
Median IC50 (µg/ml) against all viruses [5]: > 50 µg/mL
Median IC50 (µg/ml) against viruses neutralized with an IC50 <50 µg/ml [6]: 0.01 µg/mL
Percent viruses neutralized with an IC50 <50 µg/ml [6]: 40%
Median IC50 (µg/ml) against all viruses [7]: > 50 µg/mL
Median IC50 (µg/ml) against viruses neutralized with an IC50 <50 µg/ml [8]: 2.16 µg/mL
Percent viruses neutralized with an IC50 <50 µg/ml [8]: 60%
Median IC50 (µg/ml) against all viruses [9]: 15.2 µg/mL
Median IC50 (µg/ml) against viruses neutralized with an IC50 <50 µg/ml [9]: 0.4 µg/mL
Percent viruses neutralized with an IC50 <50 µg/ml [9]: 52%
Median IC50 (µg/ml) against all viruses [10]: 43.1 µg/mL
Median IC50 (µg/ml) against all viruses [11]: 0.79 µg/mL
Median IC50 (µg/ml) against viruses neutralized with an IC50 <50 µg/ml [11]: 0.09 µg/mL
Percent viruses neutralized with an IC50 <50 µg/ml [11]: 70%
Median IC50 (µg/ml) against all viruses [12]: > 50 µg/mL
Median IC50 (µg/ml) against all viruses [13]: 50 µg/mL
Median IC50 (µg/ml) against viruses neutralized with an IC50 <50 µg/ml [13]: 0.19 µg/mL
Percent viruses neutralized with an IC50 <50 µg/ml [13]: 28%
Median IC50 (µg/ml) against all viruses [14]: 34.5 µg/mL
Median IC50 (µg/ml) against all viruses [15]: 0.82 µg/mL
Median IC50 (µg/ml) against viruses neutralized with an IC50 <50 µg/ml [15]: 0.22 µg/mL
Percent viruses neutralized with an IC50 <50 µg/ml [15]: 67%
Median IC50 (µg/ml) against all viruses [16]: > 50 µg/mL
Median IC50 (µg/ml) against viruses neutralized with an IC50 <50 µg/ml [17]: 0.21 µg/mL
Percent viruses neutralized with an IC50 <50 µg/ml [17]: 67%

B2: 4980_N08 (PGT-143) (antibody, V domains shown)
VH: B1 VH with V5E, P9A, I51M, R55G, T77S
VL: B1 VL with S24T, A85P
Median IC50 (µg/ml) against all viruses [1]: > 50 µg/mL
Median IC50 (µg/ml) against viruses neutralized with an IC50 <50 µg/ml [2]: 0.31 µg/mL
Median IC50 (µg/ml) against viruses neutralized with an IC50 <50 µg/ml [3]: 0.31 µg/mL
Percent viruses neutralized, IC50 < 0.1 µg/ml [3]: 17%
Percent viruses neutralized, IC50 < 1 µg/ml [3]: 37%
Percent viruses neutralized, IC50 < 50 µg/ml [3]: 56%
Median IC50 (µg/ml) against all viruses [4]: 6.34 µg/mL
Median IC50 (µg/ml) against viruses neutralized with an IC50 <50 µg/ml [4]: 0.27 µg/mL
Percent viruses neutralized with an IC50 <50 µg/ml [4]: 65%
Median IC50 (µg/ml) against all viruses [5]: > 50 µg/mL
Median IC50 (µg/ml) against viruses neutralized with an IC50 <50 µg/ml [6]: 0.02 µg/mL
Percent viruses neutralized with an IC50 <50 µg/ml [6]: 40%
Median IC50 (µg/ml) against all viruses [7]: > 50 µg/mL
Median IC50 (µg/ml) against viruses neutralized with an IC50 <50 µg/ml [8]: 1.11 µg/mL
Percent viruses neutralized with an IC50 <50 µg/ml [8]: 50%
Median IC50 (µg/ml) against all viruses [9]: 25.9 µg/mL
Median IC50 (µg/ml) against viruses neutralized with an IC50 <50 µg/ml [9]: 0.39 µg/mL
Percent viruses neutralized with an IC50 <50 µg/ml [9]: 52%
Median IC50 (µg/ml) against all viruses [10]: > 50 µg/mL
Median IC50 (µg/ml) against all viruses [11]: 0.8 µg/mL
Median IC50 (µg/ml) against viruses neutralized with an IC50 <50 µg/ml [11]: 0.17 µg/mL
Percent viruses neutralized with an IC50 <50 µg/ml [11]: 70%
Median IC50 (µg/ml) against all viruses [12]: > 50 µg/mL
Median IC50 (µg/ml) against all viruses [13]: 50 µg/mL
Median IC50 (µg/ml) against viruses neutralized with an IC50 <50 µg/ml [13]: 0.28 µg/mL
Percent viruses neutralized with an IC50 <50 µg/ml [13]: 28%
Median IC50 (µg/ml) against all viruses [14]: > 50 µg/mL
Median IC50 (µg/ml) against all viruses [15]: 0.98 µg/mL
Median IC50 (µg/ml) against viruses neutralized with an IC50 <50 µg/ml [15]: 0.36 µg/mL
Percent viruses neutralized with an IC50 <50 µg/ml [15]: 67%
Median IC50 (µg/ml) against all viruses [16]: > 50 µg/mL
Median IC50 (µg/ml) against viruses neutralized with an IC50 <50 µg/ml [17]: 0.21 µg/mL
Percent viruses neutralized with an IC50 <50 µg/ml [17]: 67%

B3: 4970_K22 (PGT-144) (antibody, V domains shown)
VH: B1 VH with P9A, S30R, I51M, R55G, T69S, T74N, T77S, M81I, R98G, Y118Q
VL: B1 VL with P12S, S24T, E86D
Median IC50 (µg/ml) against all viruses [1]: > 50 µg/mL
Median IC50 (µg/ml) against viruses neutralized with an IC50 <50 µg/ml [2]: 2.06 µg/mL
Percent viruses neutralized with an IC50 <50 µg/ml [2]: 38%
Median IC50 (µg/ml) against viruses neutralized with an IC50 <50 µg/ml [3]: 2.06 µg/mL
Percent viruses neutralized, IC50 < 0.1 µg/ml [3]: 3%
Percent viruses neutralized, IC50 < 1 µg/ml [3]: 16%
Percent viruses neutralized, IC50 < 50 µg/ml [3]: 38%
Median IC50 (µg/ml) against all viruses [4]: 50 µg/mL
Median IC50 (µg/ml) against viruses neutralized with an IC50 <50 µg/ml [4]: 2.81 µg/mL
Percent viruses neutralized with an IC50 <50 µg/ml [4]: 46%
Median IC50 (µg/ml) against all viruses [5]: > 50 µg/mL
Median IC50 (µg/ml) against viruses neutralized with an IC50 <50 µg/ml [6]: 0.1 µg/mL
Percent viruses neutralized with an IC50 <50 µg/ml [6]: 30%
Median IC50 (µg/ml) against all viruses [7]: > 50 µg/mL
Median IC50 (µg/ml) against viruses neutralized with an IC50 <50 µg/ml [8]: 18 µg/mL
Percent viruses neutralized with an IC50 <50 µg/ml [8]: 20%
Median IC50 (µg/ml) against all viruses [9]: 50 µg/mL
Median IC50 (µg/ml) against viruses neutralized with an IC50 <50 µg/ml [9]: 3.37 µg/mL
Percent viruses neutralized with an IC50 <50 µg/ml [9]: 39%
Median IC50 (µg/ml) against all viruses [10]: > 50 µg/mL
Median IC50 (µg/ml) against all viruses [11]: 48.9 µg/mL
Median IC50 (µg/ml) against viruses neutralized with an IC50 <50 µg/ml [11]: 0.85 µg/mL
Percent viruses neutralized with an IC50 <50 µg/ml [11]: 52%
Median IC50 (µg/ml) against all viruses [12]: > 50 µg/mL
Median IC50 (µg/ml) against all viruses [13]: 50 µg/mL
Median IC50 (µg/ml) against viruses neutralized with an IC50 <50 µg/ml [13]: 2.13 µg/mL
Percent viruses neutralized with an IC50 <50 µg/ml [13]: 16%
Median IC50 (µg/ml) against all viruses [14]: > 50 µg/mL
Median IC50 (µg/ml) against all viruses [15]: 29.6 µg/mL
Median IC50 (µg/ml) against viruses neutralized with an IC50 <50 µg/ml [15]: 0.51 µg/mL
Percent viruses neutralized with an IC50 <50 µg/ml [15]: 33%
Median IC50 (µg/ml) against all viruses [16]: > 50 µg/mL
Median IC50 (µg/ml) against viruses neutralized with an IC50 <50 µg/ml [17]: 3.84 µg/mL
Percent viruses neutralized with an IC50 <50 µg/ml [17]: 33%

Where a chain is given by its changes, count along the chain named.
